How the values were obtained:
[1] = test system: enzymes CHI and ERED; assay: Anaerobic cultivation of E. coli expressing CHI and ERED with naringenin, HPLC; format: cell-based, E. ramulus DSM 16296
[2] = test system: enzymes CHI and ERED; assay: Anaerobic fermentation with CHI and ERED; 10 mM naringenin; format: cell-based, E. ramulus DSM 16296

In the case of `O=C1C[C@@H](c2ccc(O)cc2)Oc2cc(O)cc(O)c21` [Naringenin], the “Naringenin” value ([1]; time 0.25 h) was 1.00 mM, the “Naringenin” value ([1]; time 1.75 h) was 0.77 mM and the “Naringenin” value ([1]; time 3.25 h) was 0.59 mM. The “Naringenin” value ([1]; time 4.75 h) was 0.45 mM, the “Naringenin” value ([1]; time 6.25 h) was 0.44 mM and the “Naringenin” value ([1]; time 10.25 h) was 0.42 mM. For the same molecule, the “Naringenin” value ([1]; time 21.00 h) was 0.29 mM and the “Naringenin” value ([1]; time 26.00 h) was 0.27 mM.
`O=C(CCc1ccc(O)cc1)c1c(O)cc(O)cc1O` [Phloretin] was tested, and the “Phloretin” value ([1]; time 0.25 h) was 0.09 mM, the “Phloretin” value ([1]; time 1.75 h) was 0.44 mM and the “Phloretin” value ([1]; time 3.25 h) was 0.62 mM. For the same molecule, the “Phloretin” value ([1]; time 4.75 h) was 0.68 mM, the “Phloretin” value ([1]; time 6.25 h) was 0.68 mM and the “Phloretin” value ([1]; time 10.25 h) was 0.74 mM. The “Phloretin” value ([1]; time 21.00 h) was 0.70 mM, the “Phloretin” value ([1]; time 26.00 h) was 0.71 mM and the “Phloretin” value ([2]; time 1.00 hours) was 0.189 mM. The “Phloretin” value ([2]; time 2.00 hours) was 0.282 mM, the “Phloretin” value ([2]; time 3.00 hours) was 0.404 mM and the “Phloretin” value ([2]; time 4.00 hours) was 0.485 mM. For the same molecule, the “Phloretin” value ([2]; time 5.00 hours) was 0.494 mM, the “Phloretin” value ([2]; time 6.00 hours) was 0.694 mM and the “Phloretin” value ([2]; time 10.00 hours) was 0.821 mM. The “Phloretin” value ([2]; time 22.00 hours) was 0.855 mM, the “Phloretin” value ([2]; time 26.00 hours) was 0.840 mM and the “Phloretin” value ([2]; time .00 hours) was 0.008 mM.

From patent US9359622B2, “Method for biotechnological production of dihydrochalcones” (Symrise AG, priority 2012, dated 2016)
